Percent effect of library compounds

From ChEMBL document CHEMBL3988442, “University of Dundee, Small-Polar-MMV Screening Library” (2021).

Mtb glucose medium: 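Growth of Mycobacterium tuberculosis over 3 days (7H9 medium with glucose and tyloxapol); the read-out is not stated. Compounds at 50 µM. Direction is inferred from retests: higher values go with more growth inhibition. Size under these conditions: about 69,000 compounds, about 760 of them at 50% or above in at least one test.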
Mtb cholesterol medium: 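Growth of Mycobacterium tuberculosis over 4 days (cholesterol / DPPC medium with tyloxapol); the read-out is not stated. Concentration: 50 µM. Higher reads as more growth inhibition (inferred: compounds with an IC50 in retests scored well above the rest). Size under these conditions: about 69,000 compounds, about 370 of them at 50% or above in at least one test.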

Results are given as percent effect.
The controls that fix the scale are not given in the record; negative values are as filed.
The entries come from a sample that favours strong results.
Two or more numbers in one place are separate tests of the same structure; such repeats can differ widely.
A dash means the value is not listed here; it may have been measured.

| # | Compound | Mtb glucose medium | Mtb cholesterol medium |
|---|---|---|---|
| 1 | `Cc1nc(N2CCCC2)nc2c1CCN(Cc1nccn1C)CC2.O=C(O)C(F)(F)F` | 18.06% | -3.975% |
| 2 | `Fc1ccc(CN2CCCC3(CCN(Cc4ncc[nH]4)C3)C2)cc1F` (centres undefined) | 51.87% | - |
| 3 | `O=C(NC[C@H]1CC[C@H](c2ccnc3ncnn32)CC1)c1ccccn1` | 10.88% | - |
| 4 | `Cc1cc(NC(=O)NCC(O)c2ccc(F)cc2)n(C)n1` (centres undefined) | -8.12% | - |
| 5 | `Cc1ccc(CN(CCCn2ccnc2)Cc2cnc(N(C)C)nc2)s1.O=C(O)CC(O)(CC(=O)O)C(=O)O` | 17.58% | - |
| 6 | `COc1ccc(F)c(CN2CCCC3(CCN(S(C)(=O)=O)C3)C2)c1` (centres undefined) | -8.831% and 4.855% | - |
| 7 | `CC(C)Cc1noc(-c2ccc(NCc3noc(C(C)C)n3)nc2)n1` | 9.258% and 12.78% | 6.974% |
| 8 | `Cc1cc(=O)[nH]c(-n2nc(-c3cccs3)cc2N)n1` | 20.57% | - |
| 9 | `COc1cccc(CN2CC[C@H](c3nnc(C)o3)C2)c1` | -19.96% and -6.406% | -14.81% |
| 10 | `CC(C)CNC(=O)c1nnsc1-c1ccccc1` | 6.724% | - |
| 11 | `O=C(c1cccc2cc[nH]c12)N1CCC2(CCOC2)C1` (centres undefined) | -19.25% | - |
| 12 | `Cc1ccc(NC(=O)NCC2(N3CCOCC3)CCSC2)c(C)c1` (centres undefined) | -7.728% and -10.93% | - |
| 13 | `Cc1ccc(-c2noc(C(C)(C)NS(C)(=O)=O)n2)cc1F` | 31% | -6.312% |
| 14 | `O=C(O)C(F)(F)F.[H][C@]12CCCN(Cc3nccs3)[C@@]1([H])CN(S(C)(=O)=O)C2` | -22.75% and -14.68% | - |
| 15 | `O=C(NC1CCCN(CCCc2ccccc2)C1)c1ccncc1` (centres undefined) | 15.71% | 6.528% |
| 16 | `Cn1nnnc1SCC1(O)CCCCC1` | 8.912% | - |
| 17 | `CN(Cc1ccsc1)C(=O)c1ccc(S(=O)(=O)NC(C)(C)C)cc1` | 1.429% | - |
| 18 | `O=C(CS(=O)(=O)C1CCCC1)NC1CCCc2cc(OC(F)F)ccc21` (centres undefined) | 15.08% | - |
| 19 | `CC(=O)N1CCC(n2ccc(-c3cnc(N4CCOCC4)nc3)n2)CC1` | 2.475% | - |
| 20 | `O=C(c1cc2c([nH]c1=O)CCC2)N1CCCC1c1ccc(F)cc1` (centres undefined) | - | 4.406% |
| 21 | `O=C1CC2(CCSC2)C(=O)N1Cc1ncc(-c2cccc(F)c2)o1` (centres undefined) | 31.87% | - |
| 22 | `COc1cc(COCC2CCN(Cc3ccccn3)CC2)cc(OC)c1.O=C(O)C(=O)O` | - | 0.8464% |
| 23 | `CN1CCC(N(C)CCC(=O)N2CCC(Cc3ccc(F)cc3)CC2)C1` (centres undefined) | 75.41% | - |
| 24 | `Cc1ccc(OCC(=O)NCc2ccccc2F)nc1` | 12.3% | 1.706% |
| 25 | `Cc1ccccc1N1CCN(c2cc(N(C)C)ncn2)C(C)C1` (centres undefined) | 54.23% and 37.99% | - |
| 26 | `CC1CCCN(C(=O)c2nnn(-c3ccc(C(F)(F)F)cc3)n2)C1` (centres undefined) | 73.16% and 38.68% | - |
| 27 | `NS(=O)(=O)c1ccc(F)c(C(=O)NCCSc2ccccn2)c1` | -11.72% | - |
| 28 | `[H][C@]12CC[C@]([H])(CN(c3cc(OC)ncn3)C1)N(CC1CCC1)C2=O` | -16.51% | - |
| 29 | `COc1ccc(CN2CC[C@H](O)[C@@H]2Cc2cnn(C)c2)cc1.O=C(O)C(F)(F)F` | - | -14.55% and -9.204% |
| 30 | `Cc1cc(CN(C)Cc2ncc(-c3cccs3)o2)no1` | 21.69% and 12.41% | - |
| 31 | `Cc1ccc(S(=O)(=O)NCCc2ccoc2)s1` | - | 71.89% |
| 32 | `CC(C)Oc1ccccc1CNC(=O)c1[nH]ncc1Br` | -15.89% and 32.88% | - |
| 33 | `c1ccc2c(CC3CN(Cc4nccs4)CCO3)cccc2c1` (centres undefined) | - | 9.431% and 16.13% |
| 34 | `NC(=O)COc1ccc(CNCc2ccc(Cl)c(F)c2)cc1` | -13.76% | -4.553% |
| 35 | `Cc1nn(C)cc1CN(Cc1ccccn1)Cc1ccccc1Cl` | 31.81% | - |
| 36 | `CCCc1cc(=O)[nH]c(-n2nc(C3CC3)cc2N)n1` | 93.23% | 66.33% |
| 37 | `CCOCCNC(=O)Nc1ccc(OCc2noc(C3CC3)n2)cc1` | 80.04% and -9.059% | - |
| 38 | `Cc1cn2c(n1)C(CNCc1ccc(C)s1)CCC2` (centres undefined) | -22.43% | - |
| 39 | `CC(=O)c1ccccc1NC(=O)CCN1CCSCC1` | -7.621% | - |
| 40 | `COCc1nn(Cc2ccc(Br)s2)c(=O)o1` | 53.29% | 42.45% |
| 41 | `COCCC1(CNC(=O)Nc2ccc(-n3cccn3)cc2)CCC1` | 46.95% | - |
| 42 | `CN1CCN(C(=O)C2CCN(c3cccnn3)CC2)CC1` | -30.3% | - |
| 43 | `CN1CCC(c2cccc(Cc3ccc(F)cc3)n2)CC1` | -6.788% | - |
| 44 | `CCc1ccccc1OC1CN(C(=O)c2cccs2)C1` | 36.7% | 46.05% and 48.79% |
| 45 | `Nc1nnnn1NCc1ccccc1C(F)(F)F` | 7.946% | - |
| 46 | `CN(C)S(=O)(=O)N1CCCC1CC(=O)c1cccs1` (centres undefined) | 3.176% | 6.003% |
| 47 | `O=C(NCCCNc1ccc(C(F)(F)F)cn1)c1ccccc1` | 43.59% | 26.12% |
| 48 | `FC(F)(F)Oc1cccc(CNCc2ccc(-n3cncn3)nc2)c1` | 21.24% | 26.37% |
| 49 | `CC1CCC(N2Cc3nc(N)ncc3C2=O)CC1` (centres undefined) | 41.5% | 1.61% |
| 50 | `COc1cc(C)c(-c2ccc(F)c3c2OC(CN)C3)cc1C` (centres undefined) | - | 51.09% and 46.89% |
| 51 | `CCc1noc(Cn2c(=O)c3c(C(F)(F)F)cc(C)nc3n2C)n1` | 44.72% | 41.88% |
| 52 | `COc1c(C)cc(C(C(=O)O)N(C)Cc2ccn[nH]2)cc1C` (centres undefined) | -12.24% | - |
| 53 | `N[C@H]1CN(S(=O)(=O)c2ccccc2)C[C@@H]1C1CC1` | 30.68% | 4.908% |
| 54 | `Cc1cc(CNc2nccc(N)n2)c2[nH]c(C)c(C)c2c1` | 27.64% | 15.08% |
| 55 | `Cl.NC1CCc2nc(-c3cccnc3)nc(Nc3ccc(F)cc3)c2C1` (centres undefined) | 77.6% | 55.67% and 72.2% |
| 56 | `O=C(O)CSc1nccc(-c2ccc3c(c2)OCO3)n1` | 22.92% | - |
| 57 | `CCOc1ccccc1-c1cc(N)[nH]n1.Cl` | -7.896% | 3.151% and -11.97% |
| 58 | `COc1ccc(Cl)c(NCC(=O)NCC(=O)N2CCCC2)c1` | 27.63% | - |
| 59 | `Cc1cc(C2CCC2)nc(N2CCC3(CCNC(=O)CC3)CC2)n1` | 27.57% | - |
| 60 | `CC(Cn1cccn1)NC(=O)C1=Cc2ccccc2OC1` (centres undefined) | -0.8495% | - |
| 61 | `Cl.NC(Cc1nc(-c2ccccc2)no1)c1ccccc1` (centres undefined) | 16.26% and 10.86% | - |
| 62 | `COc1ccc(C2=NOC(C#N)C2)cc1` (centres undefined) | 54.01% | - |
| 63 | `CCCc1nnc(N2CC[C@](C)(O)[C@H](C)C2)s1` | -3.949% | -11.13% |
| 64 | `CCN1C(=O)C2(CCOCC2)c2cc(NC(=O)c3cnccn3)ccc21` | -9.701% and -14.15% | - |
| 65 | `COc1ccc(C)cc1CCNS(C)(=O)=O` | 17.67% | - |
| 66 | `O=C(c1cc(Cl)c[nH]1)N1CCN(CCc2ccccn2)CC1` | 19.26% | - |
| 67 | `COc1ccc(-n2cc(CNC(=O)c3cc[nH]n3)nn2)cc1` | 3.652% and 6.811% | - |
| 68 | `COc1ccc(F)cc1C(=O)C1CCCN(Cc2cnc(C)s2)C1` (centres undefined) | 21.79% and 5.18% | - |
| 69 | `Cc1ccsc1[C@@H]1CCN(C(=O)CCC(=O)c2ccccc2)C[C@H]1O` | -23.2% and 1.884% | - |
| 70 | `CCNC(=O)NC(=O)CNC(C)(C)c1ccc2c(c1)OCCO2` | 29.31% and 53.23% | 29.06% |
| 71 | `Cc1nnc2n1CCN(CCOc1ccccc1)C2` | - | 0.9715% |
| 72 | `COc1cccc(Nc2nc(N3CCCC3)nc3c2CNCC3)c1.Cl` | 54.07% | 30.77% |
| 73 | `COc1ccnc(CN2CCCC(CCc3ccccc3)C2)c1OC` (centres undefined) | 18.91% and 15.41% | - |
| 74 | `O=C(NCc1cc(O)ncn1)C1CCOc2ccccc2C1` (centres undefined) | - | -16.06% |
| 75 | `CCc1ncc(C(=O)N2CCN(c3nc(C)cc(OC)n3)CC2)s1` | -1.668% and 14.2% | - |
| 76 | `FC(F)(F)c1ccccc1CN1CCOC[C@H](Oc2cccnc2)C1` | 89.33% and 5.037% | - |
| 77 | `CN1CCC(N(C)CCC(=O)N2CCC(OCc3ccccc3)CC2)C1` (centres undefined) | -14.06% | - |
| 78 | `CN1CCN(CC(NCc2ccc(F)c(F)c2)c2ccccc2)CC1` (centres undefined) | 62.68% | - |
| 79 | `O=C(CN1CCCCCC1)NCCSc1cnn[nH]1` | 17.18% | 11.72% |
| 80 | `CC(C)c1cc(C(=O)NC2CCN(CC(N)=O)CC2)nn1C(C)(C)C` | 6.784% | - |

Once more, the final 8:

{"compound": "COc1ccnc(CN2CCCC(CCc3ccccc3)C2)c1OC", "stereo": "centres undefined", "Mtb glucose medium": "18.91 and 15.41"}
{"compound": "O=C(NCc1cc(O)ncn1)C1CCOc2ccccc2C1", "stereo": "centres undefined", "Mtb cholesterol medium": -16.06}
{"compound": "CCc1ncc(C(=O)N2CCN(c3nc(C)cc(OC)n3)CC2)s1", "Mtb glucose medium": "-1.668 and 14.2"}
{"compound": "FC(F)(F)c1ccccc1CN1CCOC[C@H](Oc2cccnc2)C1", "Mtb glucose medium": "89.33 and 5.037"}
{"compound": "CN1CCC(N(C)CCC(=O)N2CCC(OCc3ccccc3)CC2)C1", "stereo": "centres undefined", "Mtb glucose medium": -14.06}
{"compound": "CN1CCN(CC(NCc2ccc(F)c(F)c2)c2ccccc2)CC1", "stereo": "centres undefined", "Mtb glucose medium": 62.68}
{"compound": "O=C(CN1CCCCCC1)NCCSc1cnn[nH]1", "Mtb glucose medium": 17.18, "Mtb cholesterol medium": 11.72}
{"compound": "CC(C)c1cc(C(=O)NC2CCN(CC(N)=O)CC2)nn1C(C)(C)C", "Mtb glucose medium": 6.784}